# Structure probing of HIV-1 leader RNA with DMS

Source: Ye et al. 2022 (doi:10.1038/s41594-022-00746-2), supplementary data.

RNA: 5' end of the HIV-1 NL4-3 genome, made in vitro. Positions 1-437 read:
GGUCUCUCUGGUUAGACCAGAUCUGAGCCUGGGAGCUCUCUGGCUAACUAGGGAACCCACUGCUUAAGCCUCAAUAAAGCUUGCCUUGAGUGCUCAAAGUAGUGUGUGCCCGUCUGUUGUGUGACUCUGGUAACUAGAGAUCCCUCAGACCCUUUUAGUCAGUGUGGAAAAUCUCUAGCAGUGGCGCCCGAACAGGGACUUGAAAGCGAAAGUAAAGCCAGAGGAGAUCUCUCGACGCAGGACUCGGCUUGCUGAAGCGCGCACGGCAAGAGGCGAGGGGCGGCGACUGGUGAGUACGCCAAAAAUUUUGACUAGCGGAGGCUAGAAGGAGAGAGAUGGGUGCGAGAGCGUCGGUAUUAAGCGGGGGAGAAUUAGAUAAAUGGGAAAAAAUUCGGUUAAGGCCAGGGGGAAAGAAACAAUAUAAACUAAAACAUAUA

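Mutant RNA libraries with 1G, 2G or 3G starts, with or without cap, were folded at 37 °C for 30 min. Monomer and dimer bands were cut from native gels after folding in high salt (300 mM KCl, 5 mM MgCl2) or low salt (40 mM KCl, 0.1 mM MgCl2). Gel slices were treated with 170 mM dimethyl sulfate for 15 min at 37 °C and read by mutational profiling against an ethanol control.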

Scale: normalised reactivity, A and C only; low values point to paired or protected bases, higher values to unpaired ones. One numbering serves 1G, 2G and 3G. A position is written with its base.

{"position": "A133", "domain": "PBS", "1G capped low-salt dimer": 1.54, "1G capped low-salt monomer": 1.51, "1G uncapped high-salt dimer": 1.53, "1G uncapped high-salt monomer": 1.62}
{"position": "C134", "domain": "PBS", "1G capped low-salt dimer": 0.16, "1G capped low-salt monomer": 0.15, "1G uncapped high-salt dimer": 0.15, "1G uncapped high-salt monomer": 0.15}
{"position": "A136", "domain": "PBS", "1G capped low-salt dimer": 0.10, "1G capped low-salt monomer": 0.10, "1G uncapped high-salt dimer": 0.09, "1G uncapped high-salt monomer": 0.09}
{"position": "A138", "domain": "PBS", "1G capped low-salt dimer": 0.11, "1G capped low-salt monomer": 0.13, "1G uncapped high-salt dimer": 0.11, "1G uncapped high-salt monomer": 0.12}
{"position": "A140", "domain": "PBS", "1G capped low-salt dimer": 0.34, "1G capped low-salt monomer": 0.42, "1G uncapped high-salt dimer": 0.33, "1G uncapped high-salt monomer": 0.41}
{"position": "C142", "domain": "PBS", "1G capped low-salt dimer": 0.08, "1G capped low-salt monomer": 0.07, "1G uncapped high-salt dimer": 0.07, "1G uncapped high-salt monomer": 0.08}
{"position": "C143", "domain": "PBS", "1G capped low-salt dimer": 0.05, "1G capped low-salt monomer": 0.04, "1G uncapped high-salt dimer": 0.04, "1G uncapped high-salt monomer": 0.04}
{"position": "C144", "domain": "PBS", "1G capped low-salt dimer": 0.05, "1G capped low-salt monomer": 0.04, "1G uncapped high-salt dimer": 0.04, "1G uncapped high-salt monomer": 0.04}
{"position": "C146", "domain": "PBS", "1G capped low-salt dimer": 0.12, "1G capped low-salt monomer": 0.11, "1G uncapped high-salt dimer": 0.11, "1G uncapped high-salt monomer": 0.12}
{"position": "A147", "domain": "PBS", "1G capped low-salt dimer": 0.45, "1G capped low-salt monomer": 0.44, "1G uncapped high-salt dimer": 0.45, "1G uncapped high-salt monomer": 0.43}
{"position": "A149", "domain": "PBS", "1G capped low-salt dimer": 0.09, "1G capped low-salt monomer": 0.12, "1G uncapped high-salt dimer": 0.07, "1G uncapped high-salt monomer": 0.09}
{"position": "C150", "domain": "PBS", "1G capped low-salt dimer": 0.05, "1G capped low-salt monomer": 0.08, "1G uncapped high-salt dimer": 0.04, "1G uncapped high-salt monomer": 0.07}
{"position": "C151", "domain": "PBS", "1G capped low-salt dimer": 0.80, "1G capped low-salt monomer": 0.77, "1G uncapped high-salt dimer": 0.76, "1G uncapped high-salt monomer": 0.91}
{"position": "C152", "domain": "PBS", "1G capped low-salt dimer": 0.88, "1G capped low-salt monomer": 0.82, "1G uncapped high-salt dimer": 0.89, "1G uncapped high-salt monomer": 0.92}
{"position": "A157", "domain": "PBS", "1G capped low-salt dimer": 0.97, "1G capped low-salt monomer": 0.90, "1G uncapped high-salt dimer": 0.97, "1G uncapped high-salt monomer": 0.95}
{"position": "C160", "domain": "PBS", "1G capped low-salt dimer": 0.05, "1G capped low-salt monomer": 0.04, "1G uncapped high-salt dimer": 0.05, "1G uncapped high-salt monomer": 0.06}
{"position": "A161", "domain": "PBS", "1G capped low-salt dimer": 0.49, "1G capped low-salt monomer": 0.48, "1G uncapped high-salt dimer": 0.47, "1G uncapped high-salt monomer": 0.49}
{"position": "A168", "domain": "PBS", "1G capped low-salt dimer": 0.45, "1G capped low-salt monomer": 0.46, "1G uncapped high-salt dimer": 0.44, "1G uncapped high-salt monomer": 0.47}
{"position": "A169", "domain": "PBS", "1G capped low-salt dimer": 0.70, "1G capped low-salt monomer": 0.71, "1G uncapped high-salt dimer": 0.70, "1G uncapped high-salt monomer": 0.72}
{"position": "A170", "domain": "PBS", "1G capped low-salt dimer": 0.53, "1G capped low-salt monomer": 0.53, "1G uncapped high-salt dimer": 0.54, "1G uncapped high-salt monomer": 0.56}

The opening 2 entries, copied out:

{"position": "A133", "domain": "PBS", "1G capped low-salt dimer": 1.54, "1G capped low-salt monomer": 1.51, "1G uncapped high-salt dimer": 1.53, "1G uncapped high-salt monomer": 1.62}
{"position": "C134", "domain": "PBS", "1G capped low-salt dimer": 0.16, "1G capped low-salt monomer": 0.15, "1G uncapped high-salt dimer": 0.15, "1G uncapped high-salt monomer": 0.15}